Compound potency records, mixed from different reports. Data source: NIAID ChemDB in PubChem.

Shared fields: host cell toxicity; cell line: CEM; measure: CC50

CCn: concentration that lowers growth or viability of the cells by n%. Conditions beyond the fields shown may differ between rows. Blank or dashed fields: not listed here. a–b is a range or a potency band.

compound | method | value
Cc1cc(=O)oc2cc(O)c(O)cc12 | cell count | ≥100 µg/mL
C=C(COCP(=O)(O)O)C(C)n1ccc(N)nc1=O |  | >100 µM
COC(=O)CNC(=O)CCc1ccc2c(c1)COP(=O)(OC[C@@H]1C=C[C@H](n3cc(C)c(=O)[nH]c3=O)O1)O2 |  | 220 µM
Nc1nc2c(ncn2[C@H]2C[C@H](O)[C@@H](CO)O2)c(=O)o1 |  | >500 µg/mL
O=C(O)/C=C/c1ccc(O)c(O)c1.O=C(O)CCc1ccc(O)c(O)c1 | cell count | ≥100 µg/mL
CCC(Sc1cc(Cl)c(C)cc1S(=O)(=O)Nc1nc(N)nc(N(C)C)n1)C(=O)O |  | >200 µM
Cc1ccnc2c1NC(=O)c1cccnc1N2C1CC1 |  | >20 µg/mL
Cc1cn([C@@H]2O[C@H](CO[Si](C)(C)C(C)(C)C)C3(OS(=O)(=O)C=C3N)[C@H]2O[Si](C)(C)C(C)(C)C)c(=O)n(C)c1=O |  | ≥100 µM
O=C1CN=C(c2ccc[nH]2)c2cc(Cl)ccc2N1 |  | 1.18 µg/mL
Cc1cn([C@@H]2O[C@H](CO)C[C@H]2F)c(=O)[nH]c1=O |  | >100 µM
Cc1cc(S(N)(=O)=O)c(SCc2nc(N)nc(N(C)C)n2)cc1Cl |  | >200 µM
Cc1cccc(Cl)c1-n1sc(=O)n(CC2CC2)c1=O | MTS | >10 µM
Nc1ccn([C@H]2CC[C@@H](CO)O2)c(=O)n1 |  | 6 µM
Nc1nc2c(ncn2[C@H]2CC[C@@H](CO)C2)c(=O)o1 |  | >500 µg/mL
Cc1cn([C@H]2C[C@H](N=[N+]=[N-])[C@@H](CO)O2)c(=O)[nH]c1=O | XTT | 4.5 µM
Cc1cc(S(=O)(=O)/N=C(/NN)NNc2cccc(C(F)(F)F)n2)c(S)cc1Cl |  | 54 µM
Nc1ncnc2c1ncn2[C@H]1CC[C@@H](CO)O1 |  | >100 µM
CC(C)=CCN1Cc2cc(Cl)cc3[nH]c(=S)n(c23)C[C@@H]1C |  | >20 µg/mL
Cc1cc(S(=O)(=O)Nc2n[nH]c(Nc3ccccc3)n2)c(S)cc1Cl |  | >200 µM
O=C1CSC(c2c(F)cccc2F)N1c1ccncc1 | MTT | 284.4 µM
Cc1cn([C@H]2C=C[C@@H](COP3(=O)OCc4cc(CCC(=O)O)ccc4O3)O2)c(=O)[nH]c1=O |  | 74 µM
Nc1nc2c(ncn2[C@H]2C=C[C@@H](CO)C2)c(=O)o1 |  | >500 µg/mL
O=C(Nc1ccccc1C(=O)N[C@@H](Cc1ccccc1)[C@H](O)[C@H](O)[C@H](Cc1ccccc1)NC(=O)c1ccccc1NC(=O)OCc1ccccn1)OCc1ccccn1 |  | >0.06 µM
CCOCn1c([Se]c2ccccc2)c(CC)c(=O)[nH]c1=O |  | >100 µM
Cc1cn(COC(CN)CO[Si](C)(C)C(C)(C)C(C)C)c(=O)[nH]c1=O |  | 0.05–100 µM
Nc1ncnc2c1ncn2CCOCP(=O)(O)O | MTT | 45 µM
COC(=O)[C@H](CCCCN)NP(=O)(OC[C@H]1C=C[C@@H](n2cnc3c(N)ncnc32)C1)Oc1ccccc1 | trypan blue | >250 µM
C=C(COCP(=O)(O)O)C(C)n1cnc2c(=O)[nH]c(N)nc21 |  | 98 µM
Nc1ccn([C@H]2C=C[C@@H](CO)O2)c(=O)n1 |  | 22 µM
NNC(=O)c1ccccc1SSc1ccccc1C(=O)NN |  | 4.97 µM
CC(C)(C)NC(=O)[C@@H]1C[C@@H]2CCCC[C@@H]2CN1C[C@@H](OC(=O)CCCCOc1ccc(C[C@H](N)C(=O)O)cc1)[C@H](Cc1ccccc1)NC(=O)[C@H](CC(N)=O)NC(=O)c1ccc2ccccc2n1 | MTT | >100 µM
Nc1nc2c(ncn2[C@H]2C=C[C@@H](CO)O2)c(=O)o1 |  | 300 µg/mL
O=S(=O)(Nc1nnc2c3ccccc3cnn12)c1ccc(Cl)cc1S |  | >200 µM
C[C@@]1(CO)C=CC(c2c[nH]c(=O)[nH]c2=O)C1 | XTT | >100 µM
Cc1ccccc1C(=O)N[C@@H](Cc1ccccc1)[C@@H](O)C[C@H](Cc1ccccc1)NC(=O)c1ccccc1NC(=O)OCc1ccccn1 |  | >0.5 µM
CCOC(=O)c1ccc(O)c(O)c1 | cell count | >100 µg/mL
CC(n1ccc(N)nc1=O)C1(COCP(=O)(O)O)CC1 |  | >100 µM
NC(=O)NO |  | <50 µM
C[C@@]1(CO)C=CC(c2cnc(N)[nH]c2=O)C1 | XTT | >100 µM
Nc1ccn([C@H]2CC[C@@H](CO)O2)c(=O)n1 |  | 10 µM
Cc1cn([C@H]2CC(N=[N+]=[N-])[C@@H](COP(=O)(OCCC#N)OC[C@H]3CC[C@@H](n4cnc5c(=O)[nH]cnc54)O3)O2)c(=O)[nH]c1=O |  | 56.6 µM
Cc1noc(C)c1-n1sc(=O)n(CC2CC2)c1=O | MTS | >10 µM
O=C(O)/C=C/c1ccc(O)c(O)c1 | cell count | ≥100 µg/mL
Nc1nc(NC2CC2)c2ncn([C@H]3C=C[C@@H](CO)C3)c2n1 |  | 160 µM
C=C(COCP(=O)(O)O)C(C)n1ccc(=O)[nH]c1=O |  | >100 µM
Nc1nc2c(ncn2COCCO)c(=O)[nH]1 | visual reading | >20 µM
Nc1nc(=O)n([C@@H]2CC[C@H](CO)O2)cc1F |  | 24 µM
CC(C)(C)NC(=O)[C@@H]1C[C@@H]2CCCC[C@@H]2CN1C[C@@H](O)[C@H](Cc1ccccc1)NC(=O)[C@H](CC(N)=O)NC(=O)c1ccc2ccccc2n1 | MTT | >100 µM
Cc1ccc(Nc2nc(NS(=O)(=O)c3cc(C(=O)Nc4ccc(Cl)cc4)c(Cl)cc3S)n[nH]2)cc1 |  | >200 µM
C[C@H](Cn1cnc2c(N)ncnc21)OCP(=O)(O)O |  | 103 µM
CCOCn1c([Se]c2ccccc2)cc(=O)[nH]c1=O |  | 120 µM
Cc1cn([C@H]2C=C[C@@H](COP3(=O)OCc4cc(CCC(=O)NC(C)C(=O)O)ccc4O3)O2)c(=O)[nH]c1=O |  | 77 µM
CC(C)[C@H](NC(=O)N(C)Cc1ccccn1)C(=O)N[C@@H](Cc1ccccc1)[C@H](O)[C@H](O)[C@H](Cc1ccccc1)NC(=O)[C@@H](NC(=O)N(C)Cc1ccccn1)C(C)C |  | >100 µM
Nc1nc(=O)n([C@@H]2CS[C@H](CO)O2)cc1F |  | >10 µM
CC(C)Nc1cccnc1N1CCN(C(=O)c2cc3cc(NS(C)(=O)=O)ccc3[nH]2)CC1 |  | >20 µg/mL
Fc1cccc(F)c1C1SCc2nc3ccccc3n21 | MTT | 50 µM
CC(C)=CCOc1cc(NC(=S)c2ccsc2C)ccc1Cl |  | 5.8 µg/mL
CCCCCCCC/C=C\CCCCCCCC(=O)O[C@@H]1Cc2ccccc2[C@@H]1NC(=O)[C@H](Cc1ccccc1)C[C@H](O)CN1CCN(Cc2cccnc2)C[C@H]1C(=O)NC(C)(C)C | MTT | >100 µM
CCOC(=O)N[C@H](C(=O)N[C@@H](Cc1ccccc1)[C@@H](O)C[C@H](Cc1ccccc1)NC(=O)c1ccccc1NC(=O)OCc1ccccn1)C(C)C |  | >0.007 µM
Cc1cn([C@H]2C[C@H](N=[N+]=[N-])[C@@H](COC(=O)c3cccnc3)O2)c(=O)[nH]c1=O | cell count | >100 µg/mL
O=c1[nH]cnc2c1ncn2[C@H]1CC[C@@H](CO)O1 |  | 760 µM
CC(C)(C)NC(=O)[C@@H]1C[C@@H]2CCCC[C@@H]2CN1C[C@@H](OC(=O)[C@H](Cc1ccccc1)NC(=O)OC(C)(C)C)[C@H](Cc1ccccc1)NC(=O)[C@H](CC(N)=O)NC(=O)c1ccc2ccccc2n1 | MTT | >100 µM
Nc1nc2c(ncn2[C@H]2OC[C@@](F)(CCP(=O)(O)O)[C@H]2F)c(=O)[nH]1 | MTT | >100 µM
Nc1nc(=O)n([C@@H]2C=C[C@H](CO)O2)cc1F |  | 7 µM
NCC(O)c1ccc(O)c(O)c1 | cell count | >100 µg/mL
O=C1CSC(c2c(F)cccc2F)N1c1ccc(Cl)cn1 | MTT | 47.1 µM
O=C(Nc1ccccc1C(=O)N[C@@H](Cc1ccccc1)[C@@H](O)C[C@H](Cc1ccccc1)NC(=O)c1cccc(O)c1)OCc1ccccn1 |  | >10 µM
Cc1cn([C@H]2C[C@H](N=[N+]=[N-])[C@@H](COP(=O)(O)OC[C@@H]3CC[C@H](n4cnc5c(=O)[nH]cnc54)O3)O2)c(=O)[nH]c1=O |  | >100 µM
Cc1c(Sc2ccccc2)n(COC(CF)COCc2ccccc2)c(=O)[nH]c1=O |  | 0.05–100 µM
Cc1cc(S(=O)(=O)Nc2nnc3ccc4ccccc4n23)c(S)cc1Cl |  | 30.8 µM
CC(C)(C)OC(=O)N[C@@H](Cc1ccccc1)C[C@H](O)[C@H](Cc1ccccc1)NC(=O)c1ccccc1NC(=O)OCc1ccccn1 |  | >0.49 µM